Data reported in US11197904B2, “Pharmaceutical compositions for preventions and managements of dementia, infectious diseases, cancers, periodontitis, dental caries, diabetes, obesity, osteoporosis and chronic pain and methods thereof” (Chung Shan Medical University, priority 2018, dated 2021).

Experiments:
[1] = system: Porphyromonas gingivalis (P.g.); assay: Proliferation of cultured Porphyromonas gingivalis (OD600, 24 h); details: single agent
[2] = system: Streptococcus mutans (S.m., UA159); assay: Proliferation of cultured Streptococcus mutans UA159 (OD600, 24 h); details: single agent

## NaF
[1]
  IC50, 50% inhibition on bacterial proliferation, P. g.: 666 µg/mL
[2]
  IC50, 50% inhibition on bacterial proliferation, UA159: 10 µg/mL
